Source: PubChem BioAssay AID624099 (ICCB-Longwood, 2012)
Purpose: 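Knock-downs relieving repression by E2 of an HPV18 LCR luciferase reporter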 (primary screen). Cell system: human C33A cervical carcinoma cells (HPV-negative) stably expressing BPV1 E2 and an HPV18 LCR luciferase reporter. Reagent: siRNA pool against human genes, 40 nM. Time to read-out: 72 h. Measurement: 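Per-well luciferase luminescence, z-scored on each plate against the plate mean and SD with control wells left out, then averaged across three replicate plates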. Reading the numbers: mean z-score and z-score: higher = stronger reporter signal, weaker E2 silencing. Active means: 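Mean z ≥ 2 together with z ≥ 2 in two or more of the three replicates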.
The whole screen tested about 21,000 reagents; shown is a random part of them. 497 of them (2.4%) were called active. 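Higher z means weaker E2 silencing; only reporter increases were scored, and knock-downs that hurt cell survival may mask genuine repressor factors.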

With knock-down of CDC73 [SID134319235], the record shows mean z-score 0.07; z-score, replicate A = 0; z-score, replicate B = 0; z-score, replicate C = 0.21; inactive.
PGLYRP3 [SID134313474] showed mean z-score 2.2; z-score, replicate A = 2.23; z-score, replicate B = 2.09; z-score, replicate C = 2.27; active.
Silencing of MED24 [SID134324848] gave: mean z-score -0.26; z-score, replicate A = 0.02; z-score, replicate B = -0.26; z-score, replicate C = -0.53; inactive.
Knock-down of SLC35B4 [SID134312591] gave: mean z-score -0.93; z-score, replicate A = -1.15; z-score, replicate B = -1.06; z-score, replicate C = -0.57; inactive.
ADGRA3 [SID134325998] showed mean z-score -1.45; z-score, replicate A = -1.85; z-score, replicate B = -1.32; z-score, replicate C = -1.19; inactive.
Against DTL [SID134324231] the deposit lists mean z-score 0.22; z-score, replicate A = 0.43; z-score, replicate B = 0.1; z-score, replicate C = 0.13; inactive.
With knock-down of NT5DC1 [SID134329272], the screen gave mean z-score -0.79; z-score, replicate A = -0.72; z-score, replicate B = -0.68; z-score, replicate C = -0.98; inactive.
Silencing of NIPSNAP1 [SID134315824] came out at: mean z-score -1.78; z-score, replicate A = -1.45; z-score, replicate B = -1.75; z-score, replicate C = -2.16; inactive.
With knock-down of HLA-DQB2 [SID134322773], the record shows mean z-score -0.26; z-score, replicate A = -0.25; z-score, replicate B = -0.37; z-score, replicate C = -0.15; inactive.
With knock-down of UTP6 [SID134315078], the record shows mean z-score -2.05; z-score, replicate A = -2.46; z-score, replicate B = -2.16; z-score, replicate C = -1.55; inactive.
Against C6orf141 [SID134320769] the deposit lists mean z-score -1.64; z-score, replicate A = -1.54; z-score, replicate B = -1.65; z-score, replicate C = -1.74; inactive.
Knock-down of RYBP [SID134319951] resulted in: mean z-score 0.77; z-score, replicate A = 0.63; z-score, replicate B = 0.73; z-score, replicate C = 0.97; inactive.
With knock-down of MEIOC [SID134325633], the record shows mean z-score -0.07; z-score, replicate A = -0.14; z-score, replicate B = -0.07; z-score, replicate C = 0; inactive.
With knock-down of ENG [SID134315390], the screen gave mean z-score -0.44; z-score, replicate A = -0.04; z-score, replicate B = -0.56; z-score, replicate C = -0.72; inactive.
LTC4S [SID134313499] scored mean z-score -0.59; z-score, replicate A = -0.45; z-score, replicate B = -0.69; z-score, replicate C = -0.63; inactive.
Depletion of FOXO4 [SID134309808] gave: mean z-score 0.19; z-score, replicate A = 0.19; z-score, replicate B = 0.36; z-score, replicate C = 0.03; inactive.
KIF24 [SID134314987] scored mean z-score 0.33; z-score, replicate A = 0.25; z-score, replicate B = 0.39; z-score, replicate C = 0.36; inactive.
SCML4 [SID134325010] showed mean z-score 1.1; z-score, replicate A = 1.37; z-score, replicate B = 0.95; z-score, replicate C = 0.99; inactive.
After knock-down of SNAI2 [SID134321323], the record shows mean z-score -0.05; z-score, replicate A = -0.28; z-score, replicate B = 0.1; z-score, replicate C = 0.04; inactive.
With knock-down of PRDM12 [SID134318017] the results were mean z-score -0.82; z-score, replicate A = -1.09; z-score, replicate B = -0.85; z-score, replicate C = -0.52; inactive.
For ISLR [SID134321654] the deposit lists mean z-score -0.41; z-score, replicate A = -0.54; z-score, replicate B = -0.27; z-score, replicate C = -0.41; inactive.

Part of the list above, showing only “z-score, replicate C”.
NIPSNAP1 [SID134315824] = -2.16
HLA-DQB2 [SID134322773] = -0.15
